Anti-infective test results gathered from many reports (values: NIAID ChemDB through PubChem).

Shared fields: toxicity to cultured cells; cells: VERO; read-out: CC50

Blank or dashed fields: not listed here. CCn: concentration that lowers growth or viability of the cells by n%. Rows are shuffled and stem from different studies.

SMILES,method,result
C/C=N/NC(=O)c1ccncc1,,>63 µg/mL
CCCCS(=O)(=O)Nc1ccc2[nH]c(C(=O)NCc3ccc(C)cc3)c(C)c2c1,resazurin,120 µM
Cn1cc(C(=O)c2ccc(Cl)cc2)cc1/C=C/C(=O)NO,,15 µg/mL
CC(C)(C)n1cc(C(=O)O)c(=O)c2cc(F)c(N3CCN(Cc4ccc5c(c4)OCO5)CC3)cc21,,129.8 µM
CCCCS(=O)(=O)Nc1ccc2[nH]c(C(=O)NCc3cccc(C)c3)c(C)c2c1,resazurin,>120 µM
COc1ccc2nc(Cl)c(/C=C/C(=O)c3cccc4ccccc34)cc2c1,MTS,14.9 µM
CCCCCS(=O)(=O)Nc1ccc2[nH]c(C(=O)O)c(C)c2c1,resazurin,>150 µM
O=C(O)c1cn(C2CC2)c2cc(N3CCN(Cc4ccc5c(c4)OCO5)CC3)c(F)cc2c1=O,,>134.3 µM
O=C1NC(NNC(=O)c2ccncc2)=N/C1=C\c1ccccc1Cl,,48.56 µg/mL
CC1(C)C=Cc2c(ccc3oc4ccccc4c23)O1,,80 µg/mL
CCCCS(=O)(=O)Nc1ccc2[nH]c(C(=O)OC(C)(C)C)c(C)c2c1,resazurin,68 µM
CCCCCS(=O)(=O)Nc1ccc2n[nH]c(C(F)(F)F)c2c1,,37 µM
CCN(CC)C(=O)C1CCCN(c2cc3c(cc2[N+](=O)[O-])c(=O)c(C(=O)O)cn3-c2ccc(F)cc2F)C1,,62.38 µM
CC(=O)NC(CCc1ccc(Cl)c(Cl)c1)c1cccc(O)c(=O)c1,MTT,>100 µM
CCCCS(=O)(=O)Nc1ccc2[nH]c(C(=O)NCc3cccc(Cl)c3)c(C)c2c1,resazurin,>110 µM
CCCCS(=O)(=O)Nc1cc2c(Cl)[nH]nc2cc1C,,>170 µM
CC(NNC(=O)c1ccncc1)c1ccccc1F,,125 µg/mL
CN1CCN(c2cc3c(cc2F)c(=O)c(C(=O)O)cn3C2CC2)CC1c1ccccc1,,>148.3 µM
O=C1NC(=NCc2ccccc2)N/C1=C\c1ccc(Cl)cc1,,31 µg/mL
CCC1CCC2(CC1)SC(C)C(=O)N2NC(=O)Cc1csc2nc(-c3ccccc3)cn12.O.O,,6.9 µg/mL
Cc1ccc2nc(Cl)c(/C=C/C(=O)c3ccc(Br)s3)cc2c1,MTS,15.5 µM
CC1CCC2(CC1)SC(C)C(=O)N2NC(=O)Cc1csc2nc(-c3ccccc3)cn12,,>10 µg/mL
CC1(C)C=Cc2cc(C(O)c3ccccc3)ccc2O1,,16 µg/mL
O=C(O)c1cn(C2CC2)c2cc(N3CCC(N4CCCCC4)CC3)c(F)cc2c1=O,,>151.1 µM
CC/C=C/C/C=C/C/C=C/CCCCCCCC(=O)OC[C@H](CO[C@@H]1O[C@H](CO)[C@@H](O)[C@H](O)[C@H]1O)OC(=O)CCCCCCC/C=C/C/C=C/C/C=C/CC,,>100 µg/mL
C=C(C)[C@@H]1CCc2c(O)c(O)c(=O)cc(C)c2C1,MTT,>100 µM
CCCCS(=O)(=O)Nc1ccc2[nH]c(C(=O)NC3CCCCC3)c(C)c2c1,resazurin,>130 µM
C=C(C)[C@@H]1CC[C@]2(C(=O)O)CC[C@]3(C)[C@H](CC[C@@H]4[C@@]5(C)CCC(=O)C(C)(C)[C@@H]5CC[C@]43C)[C@@H]12,,16.2 µg/mL
COc1ccc2nc(Cl)c(/C=C/C(=O)c3ccc(I)s3)cc2c1,MTS,17.6 µM
Cc1cc2n[nH]c(Cl)c2cc1NS(=O)(=O)CCCCF,,>160 µM
CC1(C)CCc2c(ccc3oc4ccccc4c23)O1,,100 µg/mL
CCCCS(=O)(=O)Nc1ccc2[nH]c(C(=O)NCc3ccccc3Cl)c(C)c2c1,resazurin,>110 µM
CC(=O)c1ccc2oc3ccc(O)cc3c2c1,,16 µg/mL
O.O=C(Cc1csc2nc(-c3ccccc3)cn12)NN1C(=O)CSC12CCCCC2,,>10 µg/mL
CC(C)c1ccc(O)c(O)c(=O)c1,MTT,>100 µM
CC(=O)c1ccc2oc3ccc(C(C)=O)cc3c2c1,,16 µg/mL
COc1ccc(C(=O)c2cc(/C=C/C(=O)O)n(C)c2)cc1,,500 µg/mL
Cc1ccc2nc(Cl)c(/C=C/C(=O)c3ccc4ccccc4c3)cc2c1,MTS,35.8 µM
Cn1cc(C(=O)c2ccccc2)cc1/C=C/C(=O)NO,,15 µg/mL
COc1cc2c(cc1OC)CN(c1nc3c(cc1[N+](=O)[O-])c(=O)c(C(=O)O)cn3C1CC1)CC2,,>142.5 µM
CCCCCS(=O)(=O)Nc1ccc2[nH]c(C(=O)OCC)c(C)c2c1,resazurin,>140 µM
Cn1cc(C(=O)c2ccc(F)cc2)cc1/C=C/C(=O)NO,,8 µg/mL

A second listing of 5 rows from above:

{"SMILES": "CC1(C)CCc2c(ccc3oc4ccccc4c23)O1", "result": "100 µg/mL"}
{"SMILES": "CC(=O)NC(CCc1ccc(Cl)c(Cl)c1)c1cccc(O)c(=O)c1", "method": "MTT", "result": ">100 µM"}
{"SMILES": "CCCCS(=O)(=O)Nc1ccc2[nH]c(C(=O)NCc3cccc(C)c3)c(C)c2c1", "method": "resazurin", "result": ">120 µM"}
{"SMILES": "COc1ccc2nc(Cl)c(/C=C/C(=O)c3ccc(I)s3)cc2c1", "method": "MTS", "result": "17.6 µM"}
{"SMILES": "Cc1ccc2nc(Cl)c(/C=C/C(=O)c3ccc4ccccc4c3)cc2c1", "method": "MTS", "result": "35.8 µM"}